PubChem BioAssay AID504761, Drosophila RNAi Screening Center | 2011

Purpose: 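Fly genes whose silencing reduces dengue virus type 2 infection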 (primary screen)
System: D.Mel-2 cells from Drosophila
Reagents: long dsRNA against Drosophila genes
Challenge: infection with dengue virus type 2; dose and infection time not stated
Read-out: 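Per well on two replicate plates, imaging gave the percent of cells positive for viral envelope protein, ranked by infection, and a nuclear count of cells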
Direction: infection score: higher = more virus-infected cells; cell count: higher = more cells in the well
Call rule: 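Very low infection ranking in both replicate wells (chance probability at most 0.065), then a retest showing infection dropped 1.5-fold or more at p below 0.05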
Meaning of the calls: active = confirmed: knock-down lowers infection; inactive = not picked or not confirmed
In all, the deposit lists about 22,000 reagents; below is an unselected part of those that have a named target and a result. Over the whole deposit, 116 (0.52%) are marked active. 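Calls depend on retest data that are not deposited; infection was ranked per plate without normalising between plates; the unit of the infection score is not given.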 The raw values are shown without normalisation. A number with no mark means an inactive call. Names joined by + are all predicted targets of the reagent. Further read-outs or replicates are left out here. Not given: the amount of reagent, the time to read-out.

gene | DRSC id | infection score, replicate 1 | infection score, replicate 2 | cell count, replicate 1
CG7706 (GeneID 42244) | DRSC16295 | 2.84 | 2.83 | 6453
CG7706 (GeneID 42244) | DRSC26375 | 8.28 | 15.3 | 5842
Tsen34 + Trl | DRSC10014 | 1.92 | 1.74 | 6296
CG7276 (GeneID 39668) | DRSC10797 | 2.62 | 18.6 | 6211
CG6891 (GeneID 32865) | DRSC20016 | 9.99 | 12.8 | 6887
CG6891 (GeneID 32865) | DRSC25854 | 1.57 | 3.51 | 6483
fy (GeneID 34166) | DRSC03533 | 5.41 | 7.77 | 6415
fy (GeneID 34166) | DRSC25931 | 5.45 | 1.46 | 6398
Pink1 (GeneID 31607) | DRSC18361 | 3.51 | 2.93 | 5975
CG10898 (GeneID 41384) | DRSC14279 | 7.37 | 5.39 | 6157
Mco3 (GeneID 43134) | DRSC15926 | 3.3 | 14 | 6463
cnir (GeneID 33520) | DRSC00499 | 6.32 | 3.68 | 6112
cnir (GeneID 33520) | DRSC26787 | 2.16 (active) | 1.75 | 6755
upd1 (GeneID 32813) | DRSC20358 | 14.7 | 14.9 | 4490
upd1 (GeneID 32813) | DRSC28435 | 18.3 | 13.1 | 5660
CG31686 (retired record) (GeneID 318885) | DRSC00102 | 5.54 | 0.17 | 5997
CG31686 (retired record) (GeneID 318885) | DRSC29852 | 11.4 | 11.9 | 6781
mRpS34 (GeneID 39809) | DRSC09918 | 1.62 | 4.23 | 5240
mRpS34 (GeneID 39809) | DRSC29248 | 8.37 | 13.9 | 1924
CG13031 (GeneID 39867) | DRSC09911 | 3.46 | 4.98 | 6801
Osi6 (GeneID 40760) | DRSC12128 | 5.78 | 6.88 | 6591
Osi6 (GeneID 40760) | DRSC25935 | 2.82 | 5.72 | 6072
ppk22 (GeneID 318593) | DRSC22093 | 4.04 | 2.51 | 6517
CG3251 (GeneID 33671) | DRSC00586 | 23.3 | 9.59 | 6219
CG3376 (GeneID 37884) | DRSC04362 | 16.8 | 17.2 | 6285
CG3376 (GeneID 37884) | DRSC26489 | 0.83 | 0.8 | 6357
CG10927 (GeneID 37135) | DRSC06014 | 14.3 | 13.7 | 6244
CG10927 (GeneID 37135) | DRSC29800 | 4.43 | 9.21 | 6119
dpr18 (GeneID 32572) | DRSC19606 | 6.2 | 4.07 | 6311
Edg91 (GeneID 42117) | DRSC16657 | 0.81 | 0.25 | 6174
Spn42Db (GeneID 35599) | DRSC05009 | 24.5 | – | 5968

Continued (6 carried over from the part before).
gene | DRSC id | infection score, replicate 1 | infection score, replicate 2 | cell count, replicate 1
CG3376 (GeneID 37884) | DRSC26489 | 0.83 | 0.8 | 6357
CG10927 (GeneID 37135) | DRSC06014 | 14.3 | 13.7 | 6244
CG10927 (GeneID 37135) | DRSC29800 | 4.43 | 9.21 | 6119
dpr18 (GeneID 32572) | DRSC19606 | 6.2 | 4.07 | 6311
Edg91 (GeneID 42117) | DRSC16657 | 0.81 | 0.25 | 6174
Spn42Db (GeneID 35599) | DRSC05009 | 24.5 | – | 5968
Elp5 (GeneID 38287) | DRSC08547 | 1.87 | 1.87 | 6208
Ank2 (GeneID 38863) | DRSC08894 | 0.75 | 0.83 | 5905
Ank2 (GeneID 38863) | DRSC09666 | 2.54 | 1.49 | 6192
Ank2 (GeneID 38863) | DRSC10338 | 6.09 | 2.13 | 6007
Ank2 (GeneID 38863) | DRSC11278 | 3.59 | 3.38 | 6127
Ank2 (GeneID 38863) | DRSC22922 | 0.83 | 8.89 | 6495
Ank2 (GeneID 38863) | DRSC29821 | 14.3 | 9.88 | 6271
KrT95D (GeneID 42843) | DRSC16725 | 2.78 | 2.33 | 6106
KrT95D (GeneID 42843) | DRSC25551 | 5.22 | 10.3 | 6107
CG10559 (GeneID 43063) | DRSC14255 | 1.51 | 5.8 | 6886
CG10559 (GeneID 43063) | DRSC29876 | 13.1 | 10.8 | 5088
CG9284 (retired record) (GeneID 50130) | DRSC03899 | 1.97 | 2.26 | 5929
CG9284 (retired record) (GeneID 50130) | DRSC04536 | 6.87 | 35.7 | 6248
CG12133 (GeneID 36036) | DRSC06108 | 6.39 | 9.55 | 6715
CG12133 (GeneID 36036) | DRSC25602 | 11.8 | 16 | 6492
CG31663 (GeneID 33363) | DRSC00078 | 0.95 | 0.73 | 6129
CG31663 (GeneID 33363) | DRSC00389 | 19.2 | 17.9 | 5465
CG31663 (GeneID 33363) | DRSC00390 | 12.4 | 24.4 | 5930
CG31663 (GeneID 33363) | DRSC00393 | 5.39 | 14.8 | 6664
lbe (GeneID 42542) | DRSC16985 | 2.11 | 0.8 | 6582
lbe (GeneID 42542) | DRSC23597 | 0.9 | 6.28 | 6366
CG11563 (GeneID 43735) | DRSC14327 | 6.74 | 2.51 | 5892
Med (GeneID 43725) | DRSC25769 | 1.1 | 0.26 | 6105
Cp38 (GeneID 31788) | DRSC18453 | 0.78 | 2.65 | 6512
pk (GeneID 45343) | DRSC06178 | 10.7 | 11.5 | 5564
pk (GeneID 45343) | DRSC07664 | 3.74 | 6.3 | 7077
pk (GeneID 45343) | DRSC24979 | 4.11 | 1.71 | 6138
